The values that follow come from article doi:10.1101/2020.07.22.215871.

Construct, isoform or probe ends are uncertain for at least one entry. A negative result means that nothing was seen under these conditions. For some assays here: At least one verdict rests on a figure or table, not on a statement of the authors. For some assays here: Where a protein sequence is shown, tags need not be part of it.

In data set [1] the test system is MBP-TbmtHMG44 (MBP-5020) (Trypanosoma brucei). Briefly: EMSA. For orientation: In EMSA bound probe runs differently from free probe, usually more slowly.
Data set [2] concerns the target T1, TbmtHMG44 (MBP cleaved off by TEV) (Trypanosoma brucei) (UniProt A0A1G4IA56).
T1 sequence (looked up, limits assumed): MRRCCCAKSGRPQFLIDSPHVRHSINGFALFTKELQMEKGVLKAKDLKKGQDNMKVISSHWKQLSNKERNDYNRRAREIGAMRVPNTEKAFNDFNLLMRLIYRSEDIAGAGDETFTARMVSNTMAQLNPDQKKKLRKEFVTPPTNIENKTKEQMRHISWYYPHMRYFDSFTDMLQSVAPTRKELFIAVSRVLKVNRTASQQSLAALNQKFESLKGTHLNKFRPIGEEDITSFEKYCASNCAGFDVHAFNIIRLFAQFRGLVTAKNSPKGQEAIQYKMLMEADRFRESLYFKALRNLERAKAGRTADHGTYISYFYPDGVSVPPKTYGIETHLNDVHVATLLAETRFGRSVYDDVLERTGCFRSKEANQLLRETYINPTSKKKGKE
As to the kind of experiment: EMSA. To be noted: TEV protease present.

Regarding “GAAAAAACGGAAAATCTTATGGGCGTGCAAAAATACACATACACAAATCCCGTGCTTATTTTAGGCCATTTTT (double strand) [73 bp conserved minicircle sequence]”, the binding result in data set [1] and in data set [2] was “no binding” throughout.
